PubChem BioAssay AID504761 – Drosophila RNAi Screening Center, 2011
The screen tested about 22,000 reagents; below is a random part of those with a known target gene and a result. Of all reagents, 116 (0.52%) were called active. 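Calls depend on retest data that are not deposited; infection was ranked per plate without normalising between plates; the unit of the infection score is not given.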 A number with no mark means an inactive call. Further read-outs or replicates are left out here. The record does not give: the amount of reagent, the time to read-out.

Test: 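Fly genes whose silencing reduces dengue virus type 2 infection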 (primary screen)
Cells: D.Mel-2 cells from Drosophila
Knock-down reagent: long dsRNA against Drosophila genes
Treatment: infection with dengue virus type 2; dose and infection time not stated
Detection: 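Cells stained for dengue envelope protein and imaged; percent of infected cells per well on duplicate plates, ranked by infection, with stained nuclei counted for cell number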
Direction: infection score: higher = more virus-infected cells
Active means: 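Very low infection ranking in both replicate wells (chance probability at most 0.065), then a retest showing infection dropped 1.5-fold or more at p below 0.05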
Meaning of the calls: active = confirmed: knock-down lowers infection; inactive = not picked or not confirmed

grsm [DRSC14165] showed infection score, replicate 1 = 2.18. Depletion of grsm [DRSC14843] gave: infection score, replicate 1 = 1.25. Depletion of CG15741 [DRSC19707] resulted in: infection score, replicate 1 = 11.2. Depletion of CG15741 [DRSC24220] gave: infection score, replicate 1 = 5.79. Knock-down of Spn28Dc [DRSC03029] came out at: infection score, replicate 1 = 1.75. After knock-down of Pkcdelta [DRSC19356] the results were infection score, replicate 1 = 1.63.

With knock-down of Pkcdelta [DRSC19399] the results were infection score, replicate 1 = 1.22. After knock-down of Pkcdelta [DRSC27039], the record shows infection score, replicate 1 = 8.69. Idgf5 [DRSC06919] showed infection score, replicate 1 = 10.9. With knock-down of Idgf5 [DRSC26392], the record shows infection score, replicate 1 = 5.01. Depletion of CG12831 [DRSC06179] gave: infection score, replicate 1 = 9.4. CG33007 (retired record) [DRSC21845] gave infection score, replicate 1 = 6.58.

Against CG33007 (retired record) [DRSC28341], the entry reads infection score, replicate 1 = 10.2.

Records listed so far whose target name starts with P or p:
Pkcdelta [DRSC19356] → infection score, replicate 1: 1.63
Pkcdelta [DRSC19399] → infection score, replicate 1: 1.22
Pkcdelta [DRSC27039] → infection score, replicate 1: 8.69
